From patent US20250319108A1, “COMBINATIONS” (AN2 Therapeutics, Inc., priority 2021, published 2025) come the findings set out here.

The test system of the experiment is M. avium ATCC 700898. In kind it is cell-based. The settings on record: for +EBO (2 × MIC) Resistance Frequency: drug at its selection concentration plus EBO at 2 × MIC; for Monotherapy Resistance Frequency: selection concentration CLR 32, RFB 2, AMK 128, EMB 24 mg/L. Here is the method:
Resistant colonies were confirmed by replica plating on agar plates containing antibiotic at the same concentration used to select resistance. Control plates containing no drug were prepared for inoculum determination. The RF was calculated by dividing the total CFU/mL of resistant colonies by the total CFU/mL of the inoculum.

Turning to `CC[C@H]1OC(=O)[C@H](C)[C@@H](O[C@H]2C[C@@](C)(OC)[C@@H](O)[C@H](C)O2)[C@H](C)[C@@H](O[C@@H]2O[C@H](C)C[C@H](N(C)C)[C@H]2O)[C@](C)(OC)C[C@@H](C)C(=O)[C@H](C)[C@@H](O)[C@]1(C)O` [CLR, Clarithromycin], the “+EBO (2 × MIC) Resistance Frequency” value is given as <1.49 × 10^−10 and the “Monotherapy Resistance Frequency” value is 1.59 × 10^−7.

`NCC[C@H](O)C(=O)N[C@@H]1C[C@H](N)[C@@H](O[C@H]2O[C@H](CN)[C@@H](O)[C@H](O)[C@H]2O)[C@H](O)[C@H]1O[C@H]1O[C@H](CO)[C@@H](O)[C@H](N)[C@H]1O` [AMK, Amikacin]: the “+EBO (2 × MIC) Resistance Frequency” value is given as <1.49 × 10^−10 and the “Monotherapy Resistance Frequency” value is reported as 1.21 × 10^−8.
